Pooled drug test results. Numbers come from NIAID ChemDB, via PubChem.

Shared fields: target-level tests; agent: Hepatitis C virus; target: HCV NS3 protease

ICn: concentration for n% inhibition.

compound	measure	value
C[C@@H](O)[C@H](NC(=O)[C@H](CO)NC(=O)[C@H](CS)NC(=O)[C@@H](N)CC(=O)O)C(=O)N1CCC[C@H]1C(=O)N[C@@H](CS)C(=O)O	Ki	180 µM
CCC(NC(=O)[C@H](CC1CCCCC1)NC(=O)[C@@H](NC(=O)[C@H](CC(C)C)NC(=O)[C@@H](CCC(=O)O)NC(=O)CCC(=O)O)[C@@H](C)CC)C(=O)C(F)(F)C(F)(F)F	Ki	2 µM
CC[C@H](NC(=O)[C@@H](NC(=O)[C@@H](NC(=O)[C@H](CC(C)C)NC(=O)[C@@H](CCC(=O)O)NC(=O)[C@H](CC(=O)O)NC(C)=O)[C@@H](C)CC)C1CCCCC1)C(=O)/C=C/c1nccs1	IC50	1 µM
CCCC[C@H](NC(=O)[C@@H]1Cc2ccccc2CN1C(=O)[C@H](CS)NC(=O)[C@@H](N)CC(C)C)C(=O)N[C@@H](CO)C(=O)N[C@@H](Cc1ccc(O)cc1)C(=O)O	Ki	>1000 µM
CCC[C@H](NC(=O)[C@H](CC1CCCCC1)NC(=O)[C@@H](NC(=O)[C@H](CC(C)C)NC(=O)[C@@H](CCC(=O)O)NC(=O)[C@H](CCC(=O)O)NC(=O)CCC(=O)O)[C@@H](C)CC)C(=O)O	Ki	0.22 µM
CC(C)C[C@H](NC(=O)[C@@H](NC(=O)OC(C)(C)C)C1CCCC1)C(=O)N[C@@H](CC(F)F)C(=O)C(=O)O	IC50	0.38 µM
CC(C)[C@H](NC(=O)[C@H](CCC(=O)O)NC(=O)[C@@H](N)CC(=O)O)C(=O)N[C@H](C(=O)N1CCC[C@H]1C(=O)NC1(B(O)O)CC1)C(C)C	Ki	1.6 µM
CC[C@H](C)[C@H](NC(=O)[C@H](CC(=O)O)NC(=O)[C@@H](N)CC(=O)O)C(=O)N[C@H](C(=O)N1CCC[C@H]1C(=O)N[C@@H](CS)C(=O)O)C(C)C	Ki	79 µM
CSCC[C@H](NC(=O)[C@H](CCC(=O)O)NC(=O)[C@@H](N)CC(=O)O)C(=O)N[C@@H](CCC(=O)O)C(=O)N[C@@H](CCC(=O)O)C(=O)N[C@@H](CS)C(=O)O	Ki	0.6 µM
CCCC(C=O)NC(=O)[C@H](CC(C)C)NC(=O)[C@@H](NC(=O)[C@H](Cc1ccccc1C)NC(=O)[C@H](CCC(=O)O)NC(=O)[C@H](CC(=O)O)NC(=O)CCC(=O)O)C(C)(C)C	IC50	0.145 µM
CC(C)C[C@H](NC(=O)[C@@H](N)CC(=O)O)C(=O)N[C@@H](CCC(=O)O)C(=O)N[C@H](C(=O)N[C@H](C(=O)N[C@H](C(=O)O)[C@@H](C)O)C(C)C)C(C)C	Ki	>500 µM
CCC[C@H](NC(=O)[C@@H]1CCCN1C(=O)[C@@H](NC(=O)[C@@H](NC(=O)[C@H](CC(=O)O)NC(=O)[C@H](CC(=O)O)NC(C)=O)[C@@H](C)CC)C(C)C)C(N)=O	IC50	10 µM
CCCC(NC(=O)[C@H](CC1CCCCC1)NC(=O)[C@@H](NC(=O)[C@H](CC(C)C)NC(=O)[C@@H](CCC(=O)O)NC(=O)[C@H](CCC(=O)O)NC(=O)CCC(=O)O)[C@@H](C)CC)C(=O)C(F)(F)C(F)(F)F	Ki	0.12 µM
CCC(C=O)NC(=O)[C@H](CC(C)C)NC(=O)[C@@H](NC(=O)[C@H](Cc1ccccc1C)NC(=O)[C@H](CCC(=O)O)NC(=O)[C@H](CC(=O)O)NC(=O)CCC(=O)O)C(C)(C)C	IC50	0.54 µM
CCC[C@H](NC(=O)[C@H](CC1CCCCC1)NC(=O)[C@@H](NC(=O)[C@H](CC(C)C)NC(=O)[C@@H](CCC(=O)O)NC(=O)CCC(=O)O)[C@@H](C)CC)C(=O)O	Ki	1.9 µM
CC[C@H](NC(C)=O)C(=O)N[C@@H](CCC(=O)O)C(=O)N[C@H](C(=O)N[C@@H](CCC(=O)O)C(=O)N[C@@H](CC1CCCCC1)C(=O)N[C@@H](CC(F)F)C(=O)C(=O)O)C(c1ccccc1)c1ccccc1	Ki	0.00001 µM
CC(=O)N[C@@H](CC(=O)O)C(=O)N[C@@H](CCC(=O)O)C(=O)N[C@H](C(=O)N[C@@H](CCC(=O)O)C(=O)N[C@@H](CC1CCCCC1)C(=O)NC(CC(F)F)C(=O)C(=O)O)C(c1ccccc1)c1ccccc1	Ki	0.00001 µM
C=CC[C@H](NC(=O)[C@H](CC1CCCCC1)NC(=O)[C@@H](NC(=O)[C@H](CC(C)C)NC(=O)[C@@H](CCC(=O)O)NC(=O)CCC(=O)O)[C@@H](C)CC)C(=O)O	Ki	3 µM
Cn1c(C(F)(F)c2nc3ccc(C(=O)NC(CP(=O)(O)O)C(=O)O)cc3[nH]2)nc2ccc(C(=O)NC(CP(=O)(O)O)C(=O)NC(CP(=O)(O)O)C(=O)O)cc21	Ki	0.027 µM
CCCC(NC(=O)[C@H](CC1CCCCC1)NC(=O)[C@@H](NC(=O)[C@H](CC(C)C)NC(=O)[C@@H](CCC(=O)O)NC(=O)[C@H](CCC(=O)O)NC(=O)CCC(=O)O)[C@@H](C)CC)C(=O)c1nn[nH]n1	Ki	0.3 µM
CCC[C@@H](CO)NC(=O)[C@@H]1CCCN1C(=O)[C@@H](NC(=O)[C@@H](NC(=O)[C@H](CC(=O)O)NC(=O)[C@@H](N)CC(=O)O)[C@@H](C)CC)C(C)C	IC50	354 µM
C=CC[C@H](NC(=O)[C@H](CC1CCCCC1)NC(=O)[C@@H](NC(=O)[C@H](CC(C)C)NC(=O)[C@@H](CCC(=O)O)NC(=O)[C@H](CCC(=O)O)NC(=O)CCC(=O)O)[C@@H](C)CC)C(=O)O	Ki	0.12 µM
O=C(O)CC[C@@H](CCC(c1ccccc1)c1ccccc1)C(=O)C(NC(=O)[C@@H]1CCCC[C@H]1C(=O)O)c1ccc(Br)cc1	IC50	2 µM

Rows are shuffled and stem from different studies.